# Screening data, single-dose tests

Mtb glucose medium: 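Phenotypic screen: M. tuberculosis growth, glucose 7H9 medium, 3 days; the read-out is not stated. Compounds at 500 µM. Direction is inferred from retests: higher values go with more growth inhibition. Size under these conditions: about 18,000 compounds, about 1,400 of them at 50% or above in at least one test.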
Mtb cholesterol medium: 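Growth of Mycobacterium tuberculosis over 4 days (cholesterol / DPPC medium with tyloxapol); the read-out is not stated. Tested at 500 µM. The record gives no direction; compounds that gave an IC50 in retests scored well above the rest, so higher reads as more growth inhibition. Of about 18,000 compounds tested this way, about 900 (5%) reached 50% or more in at least one test.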

Each number is a percent effect as filed.
The controls that fix the scale are not given in the record; negative values are as filed.
The entries come from a sample that favours strong results.
A dash means the value is not listed here; it may have been measured.

| # | compound | Mtb glucose medium | Mtb cholesterol medium |
|---|---|---|---|
| 1 | `CCc1ccccc1NC(=O)C1CC(=O)C1` | 4.585% | - |
| 2 | `CN1CC2(CCN(Cc3nccn3C)CC2)OC1=O` | - | 1.693% |
| 3 | `O=C(CN1CCCC1c1ccccc1)N1CCNC1=O` (stereo not shown) | -11.28% | - |
| 4 | `CCn1cc(C(=O)Nc2ccccc2C(N)=O)c(C)n1` | 43.09% | - |
| 5 | `Cc1ncsc1C(=O)NCC1CN(CC(C)C)CCO1` (stereo not shown) | - | -3.849% |
| 6 | `NC1CC(=O)N(c2c(F)cccc2F)C1` (stereo not shown) | - | 0.3249% |
| 7 | `CS(=O)(=O)N1CC(CN)C1` | -7.905% | - |
| 8 | `CN1CCCCC1CC(=O)NCc1ccc(C#N)cc1` (stereo not shown) | - | 58.39% |
| 9 | `O=C(NC(C1CC1)C1CC1)N1CCC2(CC1)OCCO2` | -18.25% | - |
| 10 | `O=C(CNc1cccc(CO)c1)NCc1ccc(Cl)s1` | 67.63% | 48.08% |
| 11 | `CN(C)C(=O)CCCS(=O)(=O)CC(=O)N1CCCCC1` | -3.615% | -9.053% |
| 12 | `Cn1ccc(CNC(=O)c2cccnc2C(F)(F)F)c1` | -4.511% | - |
| 13 | `CN(Cc1ccc(N)nc1)c1ncc(Cl)cn1` | 73.38% | 80.64% |
| 14 | `CC(C)(C(=O)N1CCNCC1)c1ccccc1` | - | 7.637% |
| 15 | `CNS(=O)(=O)CCCNC(C)(C)c1nccs1` | - | 9.661% |
| 16 | `COc1cc(NCCN(C)S(C)(=O)=O)ncn1` | 22% | - |
| 17 | `COc1ccnc(N2CC[S+]([O-])CC2)n1` | 10.98% | -0.0183% |
| 18 | `COc1ccccc1CCNC(=O)CN` | 13.35% | 2.516% |
| 19 | `CCN1CCCN(C(=O)Nc2ccc(C)cc2)CC1` | 12.83% | - |
| 20 | `CC(=O)c1c(C)cc(C)nc1C` | 18.72% | - |
| 21 | `Cc1cc(C(=O)NCc2ccc(F)cc2)[nH]n1` | 61.23% | 58.95% |
| 22 | `CN1CCN(C2CNC2)CC1` | 3.989% | - |
| 23 | `CC(=O)Nc1ccc(-n2nc(C)cc2C)nc1` | 49% | - |
| 24 | `Cc1n[nH]c(C)c1NC(=O)CNC(C)C1CCOCC1` (stereo not shown) | -2.578% | - |
| 25 | `CCCN1CC(NC(=O)c2cc(C(C)C)on2)CC1=O` (stereo not shown) | 24.37% | 3.003% |
| 26 | `CNCC(=O)Nc1ccc(F)cc1` | 13.22% | - |
| 27 | `CCOc1cc(C(=O)NC)cc(OCC)c1OCC` | 16.98% | - |
| 28 | `C=C(C)CNC(=O)NCCc1cnn(C)c1` | 7.97% | - |
| 29 | `CNCC(=O)N1CCCc2ccccc21` | -5.84% | - |
| 30 | `CCn1c(CN2CCN(C)CC2)nnc1[C@H]1C[C@@H](N)C1` | -12.13% | - |
| 31 | `CCc1cnc(CN(C(C)=O)C2CCNC2)o1` (stereo not shown) | - | 2.652% |
| 32 | `N[C@H]1CCN(S(=O)(=O)c2ccc(F)c(C(F)(F)F)c2)C1` | 65.03% | 59.39% |
| 33 | `CCn1nnnc1NCc1sccc1C` | 28.77% | 10.15% |
| 34 | `COc1cccc(CNC(=O)[C@H]2C[C@@H](O)CN2)c1OC` | -0.4514% | - |
| 35 | `c1coc(CNCc2ccc3c(c2)OCCO3)c1` | - | -0.04457% |
| 36 | `Cc1ccc(CNC(=O)C2CCCN(C(N)=O)C2)s1` (stereo not shown) | 45.88% | - |
| 37 | `O=C(C1CCNCC1)N1CCc2ccccc2C1` | 13.45% | - |
| 38 | `O=C(NCC(F)(F)F)c1ccc(Cn2cccn2)cc1` | 30.02% | - |
| 39 | `COc1ccccc1NC(=O)NC(C)C` | - | -15.5% |
| 40 | `OCCOc1ccc(CN2CCCCCC2CO)cc1` (stereo not shown) | 11.46% | - |
| 41 | `CC(C)C(=O)N1CCC(C(=O)NCC2CC2)CC1` | 16.76% | - |
| 42 | `O=C(CCC1CCNCC1)Nc1nc2c(s1)COCC2` | 8.31% | - |
| 43 | `Cc1nn(C)c(C)c1CC(=O)N1CCSCC1` | 13.3% | - |
| 44 | `C[C@@H]1CN(C(=O)c2cc(F)ccc2F)C[C@H]1CO` | 9.75% | - |
| 45 | `NCCCc1nc(-c2ccncc2)no1` | 7.227% | 5.764% |
| 46 | `CN(C)CCO[C@@H]1COCC[C@H]1NS(C)(=O)=O` | 2.098% | - |
| 47 | `CN(C)CC(=O)Nc1cc(Cl)cc2c1OCC2` | - | -3.074% |
| 48 | `CCn1c(C(=O)N2CCOCC2C)cc2ccccc21` (stereo not shown) | 63.49% | 48.45% |
| 49 | `COc1cc(C(=O)NC(C)CC#N)ccc1C` (stereo not shown) | 74.61% | 60.42% |
| 50 | `Cc1cnc(NC(=O)c2cnccn2)c(Br)c1` | -7.073% | - |
| 51 | `O[C@@H]1CCNC[C@@H]1O` | - | -12.78% |
| 52 | `CC(C)(C)OC(=O)N1CC(S(N)(=O)=O)C1` | - | -8.323% |
| 53 | `CC(C)NS(=O)(=O)NC1CCCCNC1=O` (stereo not shown) | 9.142% | - |
| 54 | `CCN(C(=O)CSc1ncccn1)C1CCS(=O)(=O)C1` (stereo not shown) | - | 8.145% |
| 55 | `CNC(=O)c1cccc(NCc2c(C)noc2C)c1` | 11.88% | - |
| 56 | `Cc1cccc(OCCNS(C)(=O)=O)c1` | 32.67% | - |
| 57 | `COC(=O)C(C)N(c1cc(Cl)ccc1OC)S(C)(=O)=O` (stereo not shown) | - | 13.62% |
| 58 | `CCC(NC(=O)CSc1ccccn1)c1ccncc1` (stereo not shown) | 3.091% | -12.19% |
| 59 | `CC(C)OCc1nnc(C(C)N)s1` (stereo not shown) | 6.634% | - |
| 60 | `CC(C#N)Sc1nnc(-c2cccnc2)n1C` (stereo not shown) | 7.171% | 12.72% |
| 61 | `CN1CCC(CNC(=O)CCc2ccccc2O)C1` (stereo not shown) | 49.66% | - |
| 62 | `COCCSc1nncn1CCc1ccccn1` | - | 9.917% |
| 63 | `Cc1cccc(NC(=O)N(C)C(CO)C(C)(C)C)n1` (stereo not shown) | 5.229% | - |
| 64 | `CNC(=O)C1CCN(C(=O)CCc2cccs2)CC1` | 51.98% | 35.15% |
| 65 | `O=C(COC(=O)c1cccs1)c1ccc[nH]1` | 78.86% | 109% |
| 66 | `CCCc1cc(C(=O)N2CCOC(C(F)(F)F)C2)no1` (stereo not shown) | 5.652% | 5.474% |
| 67 | `Cc1ccc(CNCCNCCO)s1` | -0.8962% | -3.142% |
| 68 | `c1nnc(C2CC2)n1C1CCNCC1` | 1.87% | - |
| 69 | `CN(C)S(=O)(=O)c1ccc(COC(=O)C2CC2)o1` | 62.72% | 63.04% |
| 70 | `CSc1c(F)cc(NC(=O)NCCO)cc1F` | 50.24% | 41.7% |
| 71 | `COc1ccc(CN2CCC(NC(C)=O)CC2)cc1F` | - | 3.924% |
| 72 | `NCCC1CSc2ccccc2O1` (stereo not shown) | 61.26% | - |
| 73 | `COCCCn1cnn(C(C)(C)C)c1=O` | - | 1.214% |
| 74 | `CCn1cc(C(=O)Nc2cc(C)on2)cn1` | 20.65% | - |
| 75 | `O=C(CCC(=O)Nc1ccccc1)NCCO` | 0.1818% | 2.725% |
| 76 | `Cc1cc(C(=O)N2CCn3cccc3C2C)no1` (stereo not shown) | -17.45% | - |
| 77 | `O=C(CCN1CCN(c2ccccn2)CC1)NC1CC1` | 10.89% | 56.41% |
| 78 | `CC(C)NC1CCN(C(=O)Nc2ccncc2)CC1` | - | 0.748% |
| 79 | `COC(=O)CSc1nc2cc(F)c(F)cc2[nH]1` | 14.51% | 3.179% |
| 80 | `CN(CCOc1ccc(F)cc1)CCC(N)=O` | - | 7.173% |
| 81 | `CCc1ccc(CN(C)C(=O)COC(C)C)nc1` | 19.18% | - |
| 82 | `CC1CCN(CCCNc2ccc3nnnn3n2)CC1` | -6.876% | - |
| 83 | `CC(C)CCC(=O)NCc1ccnc(N(C)C)c1` | 28.67% | - |

Some entries from above, unchanged:

compound,Mtb glucose medium,Mtb cholesterol medium
CC(C)NC1CCN(C(=O)Nc2ccncc2)CC1,-,0.748%
CC(C)OCc1nnc(C(C)N)s1 (stereo not shown),6.634%,-
CSc1c(F)cc(NC(=O)NCCO)cc1F,50.24%,41.7%
COc1cc(C(=O)NC(C)CC#N)ccc1C (stereo not shown),74.61%,60.42%
O=C(C1CCNCC1)N1CCc2ccccc2C1,13.45%,-
Cc1cccc(OCCNS(C)(=O)=O)c1,32.67%,-
CN1CCC(CNC(=O)CCc2ccccc2O)C1 (stereo not shown),49.66%,-

Source: ChEMBL document CHEMBL3988442, “University of Dundee, Small-Polar-MMV Screening Library” (2021).